The other results are listed elsewhere or left out. Calls of active or inactive are those of the source. No stated cut-off is given here; in the data, inconclusive means inhibition above about 80% without an active follow-up result; inactive means below that; test concentration not stated here.
Assay: M. tuberculosis H37Rv growth inhibitors, H37Rv strain (AID 1626);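 further: bacteria incubated seven days before Alamar blue readout; 0% = bacteria only wells and 100% = bacteria with antibiotic wells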
Conditions: hits give high values, concentration not given here
For `c1ccc(CN2CCC(Nc3ccccc3)CC2)cc1`, the inhibition was inactive: -8.35%.
For `N#Cc1ccc(C(=O)NCC2(N3CCCCC3)CCCCC2)cc1`, the inhibition was inactive: -1.94%.
With `O=C(OC1CN2CCC1CC2)C1c2ccccc2C=Cc2ccccc21` (centres undefined) the inhibition was inactive: -3.16%.
With `COc1ccc(C(=O)NCC2(N3CCOCC3)CCCCC2)cc1OC` the inhibition was inactive: -7.32%.
In the case of `CCCOc1ccc(C)cc1CN(CCCl)CCCl`, the inhibition is reported as inactive: -0.22%.
With `CCC(CO)(C(=O)OC1CN2CCC1CC2)c1ccccc1` (centres undefined) the inhibition was inactive: -3.14%.
With `COc1cc(OC)cc(C(=O)NCC2(N3CCOCC3)CCCCC2)c1` the inhibition was inactive: -1.37%.
In the case of `CC(C)(C)OC(=O)N1CCC(Nc2ccccc2)CC1`, the inhibition is reported as inactive: -6.36%.
With `CCOc1ncccc1C(=O)NCC1(N2CCOCC2)CCCCC1` the inhibition was inactive: -21.4%.
For `CN(C)c1ccc(C(=O)NCC2(N3CCCCC3)CCCCC2)cc1`, the inhibition was inactive: -3.92%.
For `CCN1CCC(Nc2cccc(F)c2)CC1`, the inhibition was inactive: 4.65%.
In the case of `Fc1ccccc1NC1CCN(Cc2ccccc2)CC1`, the inhibition is reported as inactive: 3.36%.
In the case of `Cc1ccc(OCC(C)C)c(CN(CCCl)CCCl)c1`, the inhibition is reported as inactive: -7.3%.
For `COc1ccc(NC2CCN(CCc3ccccc3)CC2)c(OC)c1`, the inhibition was inactive: -3.33%.
In the case of `CCOc1ccc(C)cc1CN(CCCl)CCCl`, the inhibition is reported as inactive: -5.9%.
With `CCOC(=O)N1CCC(Nc2ccc(OC)cc2)CC1` the inhibition was inactive: 0.65%.
For `O=C(OC1CN2CCC1CC2)C1c2ccccc2Oc2ccccc21` (centres undefined), the inhibition was inactive: 8.38%.
In the case of `N#CC1(Nc2ccccc2)CCN(Cc2ccccc2)CC1`, the inhibition is reported as inactive: -6.78%.
In the case of `O=C(NCC1(N2CCOCC2)CCCCC1)c1cc2ccccc2o1`, the inhibition is reported as inactive: 1.19%.
With `COc1ccc(C(=O)NCC2(N3CCCCC3)CCCCC2)c(OC)c1OC` the inhibition was inactive: 5.52%.
In the case of `CN1CCC(Nc2cccc(F)c2)CC1`, the inhibition is reported as inactive: 7.64%.
In the case of `COc1ccc(CN(CCCl)CCCl)cc1Cl`, the inhibition is reported as inactive: -2.75%.
With `CN(C)c1cccc(C(=O)NCC2(N3CCCCC3)CCCCC2)c1` the inhibition was inactive: 1.36%.
In the case of `CC(C)c1ccc(NC2CCN(C(=O)OC(C)(C)C)CC2)cc1`, the inhibition is reported as inactive: 7.49%.
For `COc1ccc(NC2CCN(C(=O)OC(C)(C)C)CC2)cc1`, the inhibition was inactive: 1.24%.
With `CN1CCN(CCOC(=O)C(O)(c2ccccc2)c2ccccc2)CC1` the inhibition was inactive: -7.3%.
For `O=C(NCC1(N2CCOCC2)CCCCC1)c1cc(=O)[nH]c2ccccc12`, the inhibition was inactive: -3.25%.
For `O=C(NCC1(N2CCCCC2)CCCCC1)c1cccc([N+](=O)[O-])c1`, the inhibition was inactive: 1.74%.
With `N#CC1(Nc2ccccc2)CCN(CCc2ccccc2)CC1` the inhibition was inactive: -0.73%.
